PubChem BioAssay AID504761 | Drosophila RNAi Screening Center – 2011
The deposit covers about 22,000 reagents; shown is a random part of those with a known target gene and a result. Of all reagents, 116 (0.52%) got an active call. 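Calls depend on retest data that are not deposited; infection was ranked per plate without normalising between plates; the unit of the infection score is not given.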 Raw values vary from plate to plate and are shown uncorrected. Entries without a mark were called inactive. Not stated in the record: the amount of reagent, the time to read-out.

- Test: 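Insect host genes that dengue virus relies on to spread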 (primary screen)
- System: D.Mel-2 cells from Drosophila
- Knock-down reagent: long dsRNA against Drosophila genes
- Treatment: infection with dengue virus type 2; dose and infection time not stated
- Measurement: 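Cells stained for dengue envelope protein and imaged; percent of infected cells per well on duplicate plates, ranked by infection, with stained nuclei counted for cell number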
- Reading the numbers: infection score: higher = more virus-infected cells; cell count: higher = more cells in the well
- Active means: 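Low infection ranks in the two replicates (chance level up to 0.065) followed by a retest with a 1.5-fold or larger significant decrease, p below 0.05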
- Meaning of the calls: active = confirmed: knock-down lowers infection; inactive = not picked or not confirmed

Against CG2063 [DRSC06811] the deposit lists infection score, replicate 1 = 34.6; infection score, replicate 2 = 49; cell count, replicate 1 = 3154; cell count, replicate 2 = 1928.
Silencing of para [DRSC20360] gave: infection score, replicate 1 = 23.2; infection score, replicate 2 = 6.66; cell count, replicate 1 = 5755; cell count, replicate 2 = 5599.
PH4alphaMP [DRSC17031] gave infection score, replicate 2 = 0.83; cell count, replicate 1 = 370; cell count, replicate 2 = 606.
After knock-down of CG5938 [DRSC15923], the record shows infection score, replicate 1 = 2.06; infection score, replicate 2 = 5.15; cell count, replicate 1 = 6457; cell count, replicate 2 = 4931.
Against CG5938 [DRSC24038], the entry reads infection score, replicate 1 = 4.24; infection score, replicate 2 = 2.65; cell count, replicate 1 = 7023; cell count, replicate 2 = 6425.
nudC [DRSC11096] showed infection score, replicate 1 = 3.21; infection score, replicate 2 = 2.69; cell count, replicate 1 = 6045; cell count, replicate 2 = 6774.
With knock-down of nudC [DRSC11097] the results were infection score, replicate 1 = 2.71; infection score, replicate 2 = 3.51; cell count, replicate 1 = 6169; cell count, replicate 2 = 6094.
ProRS-m [DRSC08261] scored infection score, replicate 1 = 5.3; infection score, replicate 2 = 23.4; cell count, replicate 1 = 5717; cell count, replicate 2 = 5581.
ProRS-m [DRSC30008] showed infection score, replicate 1 = 6.95; infection score, replicate 2 = 4.4; cell count, replicate 1 = 6187; cell count, replicate 2 = 6075.
For CG1894 [DRSC15396], the values are infection score, replicate 1 = 2.84; infection score, replicate 2 = 1.77; cell count, replicate 1 = 5640; cell count, replicate 2 = 6675.
For CG17029 [DRSC10240], the entry reads infection score, replicate 1 = 1.78; infection score, replicate 2 = 1.97; cell count, replicate 1 = 6514; cell count, replicate 2 = 6384.
Knock-down of CG17029 [DRSC29418] gave: infection score, replicate 1 = 22.6; infection score, replicate 2 = 19.2; cell count, replicate 1 = 3528; cell count, replicate 2 = 2618.
For zye [DRSC11784], the entry reads infection score, replicate 1 = 26.1; infection score, replicate 2 = 20.8; cell count, replicate 1 = 5145; cell count, replicate 2 = 3692.
With knock-down of CG15506 [DRSC15047], the record shows cell count, replicate 1 = 290; cell count, replicate 2 = 268.
After knock-down of Egfrap [DRSC09963], the screen gave infection score, replicate 1 = 8.34; infection score, replicate 2 = 5.21; cell count, replicate 1 = 5227; cell count, replicate 2 = 5763.
Silencing of Egfrap [DRSC09964] resulted in: infection score, replicate 1 = 2.04; infection score, replicate 2 = 2.2; cell count, replicate 1 = 5730; cell count, replicate 2 = 5314.
Silencing of Egfrap [DRSC25261] resulted in: infection score, replicate 1 = 4.27; infection score, replicate 2 = 2.33; cell count, replicate 1 = 6678; cell count, replicate 2 = 6522.
Silencing of CG18507 [DRSC01334] came out at: infection score, replicate 1 = 2.08; infection score, replicate 2 = 3.49; cell count, replicate 1 = 6735; cell count, replicate 2 = 6338.
Against CG18507 [DRSC01914], the entry reads infection score, replicate 1 = 13.4; infection score, replicate 2 = 8.97; cell count, replicate 1 = 4887; cell count, replicate 2 = 5711.
Hrb27C [DRSC03347] gave infection score, replicate 1 = 1.71; infection score, replicate 2 = 2.78; cell count, replicate 1 = 3735; cell count, replicate 2 = 3527.
Against Hrb27C [DRSC28323] the deposit lists infection score, replicate 1 = 6.54; infection score, replicate 2 = 1.96; cell count, replicate 1 = 2705; cell count, replicate 2 = 3115.
